US20250320480A1, “Immunoglobulin Cleaving Enzyme” (priority 2021, published 2025)

System: IVIG
Assay: Prevalence of anti-IgG hydrolase antibodies in IVIG (ELISA and Western blot)
Assay type: binding, human
Settings: IVIG 5 μg/mL

B1: IdeSORK2.0: SEQ ID NO: 2 (N terminal 312 amino acids of IdeSORK) with added N terminal methionine and C-terminal His6; 319 amino acids (protein)
chain: MSKRKLLKKIEKKDTSSVLTQKKQTKTLWADGVQVDDKDFKPSTENFGTNYLAAEYGIGKGYYDINKKFDGTDDDLCSGVVAANQLHWWLDRNKDYIEKYRQQSKDNGVTIGNTDIFELNKLHDEDQSNFFDFIKKSFGNKFLQPERLLNMYINGYGYLTSQDKAKTSQPSPSKLNFFQKVFKNNLLTDKTPINDIDEFSSQTKNALQNHKVLAVSFASIKNRGLGHVVTVWGADFDENGKVVALYVTDSDDRSKNIGNAKLGMKKLRIEVSAQDSSTIKLTGFEDKNSGGSLRHLYSLSTGEQIWKKYFEETHHHHHH
modifications: (IdeSORK2.0) Protein of SEQ ID NO 2 engineered to include an additional N terminal methionine and a C-terminal protein purification tag - His6
  Binding of IVIG antibodies to the enzyme (pre-existing anti-enzyme antibodies): even less
Listed as IdesSORK2.0
  Binding of IVIG antibodies to the enzyme (pre-existing anti-enzyme antibodies): very little reactivity with IVIG

B2: IdeZ: IgG cysteine protease produced by Streptococcus equi ssp. zooepidemicus (protein)
chain: DDYQRNATEAYAKEVPHQITSVWTKGVTPLTPEQFRYNNEDVIHAPYLAHQGWYDITKAFDGKDNLLCGAATAGNMLHWWFDQNKTEIEAYLSKHPEKQKIIFNNQELFDLKAAIDTKDSQTNSQLFNYFRDKAFPNLSARQLGVMPDLVLDMFINGYYLNVFKTQSTDVNRPYQDKDKRGGIFDAVFTRGDQTTLLTARHDLKNKGLNDISTIIKQELTEGRALALSHTYANVSISHVINLWGADFNAEGNLEAIYVTDSDANASIGMKKYFVGINAHGHVAISAKKIEGENIGAQVLGLFTLSSGKDIWQKLS
  Binding of IVIG antibodies to the enzyme (pre-existing anti-enzyme antibodies): significantly less antibody binding

B3: IdeS: Immunoglobulin G-degrading enzyme of S. pyogenes, IgG-specific cysteine protease (protein)
chain: DSFSANQEIRYSEVTPYHVTSVWTKGVTPPANFTQGEDVFHAPYVANQGWYDITKTFNGKDDLLCGAATAGNMLHWWFDQNKDQIKRYLEEHPEKQKINFNGEQMFDVKEAIDTKNHQLDSKLFEYFKEKAFPYLSTKHLGVFPDHVIDMFINGYRLSLTNHGPTPVKEGSKDPRGGIFDAVFTRGDQSKLLTSRHDFKEKNLKEISDLIKKELTEGKALGLSHTYANVRINHVINLWGADFDSNGNLKAIYVTDSDSNASIGMKKYFVGVNSAGKVAISAKEIKEDNIGAQVLGLFTLSTGQDSWNQTN
  Binding of IVIG antibodies to the enzyme (pre-existing anti-enzyme antibodies): prevalent
